A mixed list of measured activities; the numbers were collected in NIAID ChemDB.

Shared fields: cytotoxicity tests; cells: ATH8; measure: CC50

Neighbouring rows are from separate reports. CCn: concentration that lowers growth or viability of the cells by n%. Blank or dashed fields: not listed here.

SMILES	method	value
Nc1ccn([C@H]2C=C[C@@H](CO)O2)c(=O)n1		2000 µM
Nc1ncnc2c1ncn2[C@@H]1C=C(CO)[C@@H](O)[C@H]1O		<0.05 µg/mL
O=c1[nH]cnc2c1ncn2[C@H]1CC[C@@H](CO)O1		1000 µM
Nc1nc(=O)n([C@H]2CC[C@@H](CO)O2)cc1F		>50 µM
Nc1ncnc2c1ncn2C=C=CCO		<1000 µM
Nc1ncnc2c1ncn2[C@H]1CC[C@@H](CO)O1		>500 µM
Nc1ccn([C@H]2CC[C@@H](CO)O2)c(=O)n1		>5 µM
Nc1ccn([C@H]2CC[C@@H](COP(=O)(O)O)O2)c(=O)n1		>10 µM
Nc1ccn([C@H]2CC[C@@H](CO)O2)c(=O)n1		30 µM
Nc1ccn([C@H]2C=C[C@@H](CO)O2)c(=O)n1	trypan blue	30 µM
NC(=O)c1ncn([C@@H]2O[C@H](CO)[C@@H](O)[C@H]2O)n1		<100 µg/mL
CC(C)[C@H](NC(=O)N(C)Cc1ccccn1)C(=O)N[C@@H](Cc1ccccc1)[C@H](O)[C@@H](O)[C@H](Cc1ccccc1)NC(=O)[C@@H](NC(=O)N(C)Cc1ccccn1)C(C)C		>100 µM
CCS[C@H]1C[C@H](n2cc(C)c(=O)[nH]c2=O)O[C@@H]1CO		>100 µM
Nc1ncnc2c1ncn2[C@H]1CC[C@@H](CO)O1		>200 µM
OC[C@H]1O[C@@H](n2cnc3c2NC=NC[C@H]3O)C[C@@H]1O		>0.05 µM
Nc1ccn(C=C=CCO)c(=O)n1		>5 µM
CCC(C)C(NC(=O)[C@@H]1CCCN1C(=O)[C@@H](O)[C@H](Cc1ccccc1)NC(=O)[C@H](CC(N)=O)NC(=O)OCc1ccccc1)C(=O)NCC1CCCCC1		20 µM
Nc1ncnc2c1ncn2CC#CCO		>100 µM
Cc1cn([C@H]2C[C@H](SC#N)[C@@H](CO)O2)c(=O)[nH]c1=O		>100 µM
Nc1ncnc2c1ncn2[C@H]1CC[C@@H](COP(=O)(O)O)O1		>200 µM
Nc1ncnc2c1ccn2[C@@H]1O[C@H](CO)[C@@H](O)[C@H]1O		<0.02 µg/mL
Cc1cn([C@H]2CC[C@@H](CO)O2)c(=O)[nH]c1=O		>2000 µM
CC(C)(C)NC(=O)[C@@H]1CCCN1C(=O)[C@@H](O)[C@H](Cc1ccccc1)NC(=O)[C@H](CC(N)=O)NC(=O)COc1cccc2ccccc12		>20 µM
Cc1cn([C@H]2C=C[C@@H](CO)O2)c(=O)[nH]c1=O		100 µM
CSC[C@H](NC(=O)COc1cccc2ccccc12)C(=O)N[C@@H](Cc1ccccc1)[C@H](O)C(=O)N1CSC(C)(C)[C@H]1C(=O)NC(C)(C)C		7 µM
Cc1cn([C@H]2C[C@H](Cl)[C@@H](CO)O2)c(=O)[nH]c1=O		>500 µM
Nc1ccn(C/C=C/CO)c(=O)n1		>100 µM
CCc1cn([C@H]2C[C@H](F)[C@@H](CO)O2)c(=O)[nH]c1=O		>500 µM
Nc1ncnc2c1ncn2CC#CCCl		<100 µM
Cc1cn([C@H]2C[C@@H](O)[C@@H](CO)O2)c(=O)[nH]c1=O		>100 µM
Cc1cn([C@H]2CC[C@@H](CO)O2)c(=O)[nH]c1=O		>100 µM
Cc1cn([C@H]2C=C[C@@H](CO)O2)c(=O)[nH]c1=O		110 µM
Cc1cn([C@H]2C=C[C@@H](CO)O2)c(=O)[nH]c1=O		110 µM
NC[C@@H]1C=C[C@H](n2ccc(N)nc2=O)O1		>500 µM
O=c1ccn([C@H]2CC[C@@H](CO)O2)c(=O)[nH]1		>500 µM
Cc1cn([C@H]2C=C[C@@H](CO)O2)c(=O)[nH]c1=O	trypan blue	110 µM
Nc1ncnc2c1ncn2[C@H]1C=C[C@@H](CO)O1		52 µM

Again, the opening 2 rows:

SMILES,method,value
Nc1ccn([C@H]2C=C[C@@H](CO)O2)c(=O)n1,,2000 µM
Nc1ncnc2c1ncn2[C@@H]1C=C(CO)[C@@H](O)[C@H]1O,,<0.05 µg/mL